Laboratory results: US10221152B2 (priority 2013, dated 2019)

Columns and labels:
[1] = test system: H1N1 T.R. (Tamiflu-resistant variant of H1N1 viral strain); experiment: Inhibitory concentration against Tamiflu-resistant variant of H1N1 (H1N1 T.R.), MTT assay; format: cell-based, Influenza A virus
[2] = test system: Influenza A/WSN/33 (H1N1); settings: virus strain used for the ratio not stated

COc1c(C)c2c(c(O)c1C/C=C(\C)CCC(=O)OCCN1CCOCC1)C(=O)OC2 was tested, and the “effects against drug-resistant influenza viral strains” value ([1]; according to Table 5) was “good effects”, the “minimal inhibitory concentrations against the drug-resistant virus strains compared to Ribavirin” value ([1]; compared to the Ribavirin control group (Table 4)) was “better minimal inhibitory concentrations” and the “S.I. (Selection Index: CC50/EC50)” value [2] was greater than 2000. The “S.I. (Selection Index: CC50/EC50)” value ([2]; hydrochloride) was greater than 4000.

Like-named read-outs stand apart in the source and are kept apart here.
